Assay results from US7671181B2, “Polynucleotides encoding coccidian parasite casein kinase I, a chemotherapeutic target for antiprotozoal agents” (Merck Sharp & Dohme Corp., priority 2004, dated 2010).

Protein sequences, listed by entry. Tags and fused reporters are not part of them. Lines headed by an entry give the natural chain unless they say otherwise; changes in a name come on top.
UniProt Q6QNL9, whole entry: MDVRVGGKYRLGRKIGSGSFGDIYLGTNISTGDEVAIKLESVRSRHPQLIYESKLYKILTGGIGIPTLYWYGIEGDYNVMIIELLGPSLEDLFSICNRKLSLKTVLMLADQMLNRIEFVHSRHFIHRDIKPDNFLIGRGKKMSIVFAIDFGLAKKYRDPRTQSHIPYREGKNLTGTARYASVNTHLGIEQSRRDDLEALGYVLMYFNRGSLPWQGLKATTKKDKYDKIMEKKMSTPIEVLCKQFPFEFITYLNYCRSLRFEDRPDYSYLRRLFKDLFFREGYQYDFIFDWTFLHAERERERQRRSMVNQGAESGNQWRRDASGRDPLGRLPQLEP

Tests used:
[1] = tested on: Eimeria tenella CDPK2 (FLAGEtCDPK2, recombinant); assay: Kinase assay, inhibition of FLAGEtCDPK2; conditions: dose response titration, Table 3
Method: (§1) Protein kinase assays—Casein kinase activity was assayed essentially as described (Donald, R. G. K. et al., 2002, supra) using 96-well phosphocellulose plates (MAPH-NOB, Millipore; Billerica, Mass.) to capture ^33P-phosphorylated peptide or casein substrates. Kinase reactions were carried out in 40 μl volumes containing 25 mM Hepes, pH 7.4, 10 mM MgCl2, 20 mM β-glycerophosphate, 1 mM DTT, 250 μM substrate, 1 mg/mL BSA, 2 μM ATP, and 0.01 μM [γ-^33P]ATP (Perkin-Elmer, 3000 Ci/mmol). The reactions were initiated by the addition of enzyme and incubated at room temperature for 60 min. Casein (5% solution), partially dephosphorylated α-casein and β-casein were obtained from Sigma.
(§2) A variety of commercially available peptide substrates were evaluated. From Calbiochem (San Diego, Calif.): CKI substrate (RRKDLHDDEEDEAMSITA; SEQ ID NO:13); CKII substrate (RRADDSDDDDD; SEQ ID NO:14); Syntide-2 substrate (PLARTLSVAGLPGKK; SEQ ID NO:15); CaM kinase II substrate (281-291) (MHKNETVECLK; SEQ ID NO:16). From Promega: CKI substrate (DDDEESITRR; SEQ ID NO:17) and kemptide (LRRASLG; SEQ ID NO:18). From New England Biolabs (Beverly, Mass.): CKI phosphopeptide substrate (KRRRALS(p)VASLPGL; SEQ ID NO:19), and CKII substrate (RRREEETEEE; SEQ ID NO:20). PKG assays were performed with kemptide as substrate and 10 μM cGMP. CDPK was assayed with Syntide-2 substrate and in the presence of 100 μM CaCl2.

[2] = target: Eimeria tenella casein kinase I alpha (native EtCKIα), SEQ ID NO:2 (Eimeria tenella, UniProt Q6QNL9); assay: Casein kinase assay, inhibition of partially purified native EtCKIα; conditions: at 250 nM; cation exchange purified native enzyme
Method: as §1
as §2, with “CaCl2. […]” for “CaCl2.”

SMILES: CN(C)Cc1ccn2c(-c3ccnc(N)n3)c(-c3ccc(F)cc3)nc2c1
- IC50 [1]: > 10 µM
- inhibition [2]: 100%
